Measured values from several laboratories, pooled; numbers as filed in NIAID ChemDB.

Common to all: growth or infection tests; organism: HIV-1

ECn: concentration that inhibits the pathogen or its effect by n%. Rows are shuffled and stem from different studies. An empty or dashed field is not shown.

| smiles | read by | strain or isolate | changes | cells | measure | result |
|---|---|---|---|---|---|---|
| O=C(Nc1cc(S(=O)(=O)O)cc2cc(S(=O)(=O)O)c(N=Nc3ccc(N=Nc4c(S(=O)(=O)O)cc5cc(S(=O)(=O)O)cc(NC(=O)c6cccc(Cl)c6Cl)c5c4O)cc3)c(O)c12)c1ccc(Cl)cc1Cl | p24 | ADA |  | PBMC | EC50 | 0.8 µM |
| C[C@@H]1CCO[C@H]2Cn3cc(C(=O)NCc4ccc(F)cc4F)c(=O)c(O)c3C(=O)N12 | luciferase |  |  | HOS | EC50 | <0.004 µM |
| CCn1cc(C(=O)O)c(=O)c2cc(F)c(N3CCN(c4ccccc4OC)CC3)c(OC(F)F)c21 | cytopathic effect / MTT | B12 |  | C8166 | EC50 | 0.2 µM |
| O=c1c2ccccc2sn1/N=C/c1cccc(O)c1 | MTT |  | K103N + Y181C | MT-4 | EC50 | >15 µM |
| CC(c1ccc(F)cc1)S(=O)c1cccc[n+]1[O-] | syncytia | IIIB |  | CEM | EC50 | >0.16 µg/mL |
| COc1ccc2c(c1)OCC/C=C\CN(C[C@@H](O)[C@H](Cc1ccccc1)NC(=O)O[C@H]1CO[C@H]3OCC[C@H]31)S2(=O)=O | MTT | LAI |  | MT-2 | EC50 | 0.02 µM |
| COc1ccc(S(=O)(=O)N(CC(C)C)C[C@@H](O)C[C@@H](CNCC(C)C)Cc2ccccc2)cc1 | p24 | IIIB |  | CEM | EC50 | <1 µM |
| Cc1cn([C@H]2C[C@H](N=[N+]=[N-])[C@@H](CO)O2)c(=O)[nH]c1=O | p24 / ELISA | 1617-1 |  | PBMC | EC50 | 3.508 µM |
| O=S(=O)(O)c1cc(N=C=S)ccc1/C=C/c1ccc(N=C=S)cc1S(=O)(=O)O |  |  |  | JM | EC50 | ≥30 µM |
| O=C1Cc2ccc(-c3cccs3)cc2C(=O)N1O | cytopathic effect / absorbance | IIIB |  | CEM-SS | EC50 | >10 µM |
| C=C1[C@H](CO)[C@@H](O)C[C@@H]1n1cnc2c(=O)[nH]c(N)nc21 | cytopathic effect / XTT |  |  | MT-2 | EC50 | 11 µM |
| CC(=O)OCCCc1cnc2c(c1)c(N)c(C(=O)NCc1ccc(F)cc1F)c(=O)n2O | luciferase |  | AGC (GGGAGC) | HOS | EC50 | <0.003 µM |
| CC(C)CN(CC(O)CNc1cscc1S(=O)(=O)c1ccccc1)S(=O)(=O)c1ccccc1 | p24 | IIIB |  | CEM | EC90 | 1 µM |
| Cc1ccc2sn(/N=C/c3ccc(F)cc3)c(=O)c2c1 | MTT |  |  | MT-4 | EC50 | >15 µM |
| Nc1cccc(S(=O)(=O)N(CC2CCCC2)C[C@@H](O)CN(CCc2ccccc2)C(=O)c2cccnc2)c1 | p24 | IIIB |  | CEM | EC90 | 1 µM |
| O=C1Cc2cc(-c3cccc4c3sc3ccccc34)ccc2C(=O)N1O | cytopathic effect / absorbance | IIIB |  | CEM-SS | EC50 | >10 µM |
| CC(C)CN(C[C@@H](O)[C@H](Cc1ccccc1)NC(=O)[C@@H](NC(=O)[C@@H](C)NC(C)(C)c1ccccc1)C(C)(C)C)S(=O)(=O)c1ccc2ncccc2c1 |  | RF |  | MT-2 | EC50 | <1 µM |
| Cc1ccc2sn(/N=C/c3ccccc3F)c(=O)c2c1 | MTT |  | EFV-resistant (K103 V179D P225H) | MT-4 | EC50 | >18 µM |
| COc1c(C)c2c(c(O)c1C/C=C(\C)CCC(=O)O)C(=O)OC2 | p24 | LAV-1 |  | PBMC | EC50 | 0.052 µM |
| Cn1nc(NS(C)(=O)=O)c2c(Cl)ccc(-n3c([C@H](Cc4cc(F)cc(F)c4)NC(=O)Cn4nc(C(F)F)c5c4C(F)(F)[C@@H]4C[C@H]54)nc4cc(-c5ccccc5OC(F)F)ccc4c3=O)c21 | luciferase | NL4-3 |  | MT-2 | EC50 | 0.00011 µM |
| CC(C)CN(C[C@@H](O)[C@H](Cc1ccccc1)NC(=O)[C@@H](NC(=O)CNC(C)(C)c1cccc(F)c1)C(C)(C)C)S(=O)(=O)c1ccc2nc(N)sc2c1 |  | RF |  | MT-2 | EC50 | <1 µM |
| O=c1[nH]c(=O)c2nc(-c3ccccn3)c(-c3ccccn3)nc2[nH]1 | cytopathic effect / MTT / absorbance | IIIB |  | MT-4 | EC50 | >103 µM |
| Nc1ncnc2c1ncn2C(CF)CCCO | cytopathic effect | IIIB |  | CEM | EC50 | >100 µg/mL |
| CCCCCCCCCCCC(c1cc(C)ccc1C)S(=O)(=O)c1cccc[n+]1[O-] | syncytia | IIIB |  | CEM | EC50 | >20 µg/mL |
| Cc1nnc(C(=O)NC(C)(C)c2nc(C(=O)NCc3ccc(F)cc3)c(O)c(=O)n2C)o1 | luciferase | NL4-3 |  | TZM-bl | EC50 | 0.00775 µM |
| O=c1c2ccccc2sn1/N=C/c1ccc(O)c(O)c1 | MTT |  | Y181C | MT-4 | EC50 | >44 µM |
| O=C(O)C/C(=C/C(=O)NCCCC[C@H](NC(=O)OCc1ccccc1)C(=O)N[C@@H](CCCCNC(=O)/C=C(/CC(=O)O)C(=O)O)C(=O)OCc1ccccc1)C(=O)O | p24 | IIIB |  | C8166 | EC50 | 10 µM |
| Cc1ccc(C)c(CSc2c(O)ccc[n+]2[O-])c1 | syncytia | IIIB |  | CEM | EC50 | >20 µg/mL |
| Cc1cn([C@H]2C[C@H](N=[N+]=[N-])[C@@H](CO)O2)c(=O)[nH]c1=O | RT activity | LAI |  | PBMC | EC50 | 0.03 µM |
| [O-][n+]1ccccc1SCc1ccccc1 | syncytia | IIIB |  | CEM | EC50 | ≥100 µg/mL |
| CC(C)C1=C2C(CC1=O)[C@@H](C(=O)NCCN(CCN(C)C)Cc1ccc(Cl)cc1)C[C@@H]1[C@@H]2CCC2C3C(CC[C@]21C)C(C)(C)C(C1=CC[C@@H](C(=O)O)CC1)=C[C@H]3C | MTS / propidium iodide | NL4-3 | V370A | MT-4 | EC50 | >15 µM |
| COc1cnc(-n2cnc(C)n2)c2[nH]cc(C(=O)C(=O)N3CCN(C(=O)c4ccccc4)CC3)c12 | RT activity | RF |  | MT-2 | EC50 | >2 µM |
| Cc1ccc2sn(/N=C/c3ccc([N+](=O)[O-])cc3[N+](=O)[O-])c(=O)c2c1 | MTT |  | Y181C | MT-4 | EC50 | >100 µM |
| O=C(N[C@@H](CCCCNC(=O)c1cccc(O)c1C(=O)O)C(=O)OCc1ccccc1)OCc1ccccc1 | p24 | IIIB |  | C8166 | EC50 | 50 µM |
| N#C/C(=C/c1ccccc1)Sc1cccc[n+]1[O-] | syncytia | IIIB |  | CEM | EC50 | >4 µg/mL |
| CC(C)CN(C[C@@H](O)[C@H](Cc1ccccc1)NC(=O)[C@@H](NC(=O)CNC(C)(C)c1cccc(F)c1)C(C)(C)C)S(=O)(=O)c1ccc2ncsc2c1 |  | RF |  | MT-2 | EC50 | <1 µM |
| C=CCC(c1cc(C)ccc1C)S(=O)(=O)c1cccc[n+]1[O-] | syncytia | IIIB |  | CEM | EC50 | 10 µg/mL |
| COC(=O)CCNP(=O)(OC[C@@H]1C=C[C@H](n2cc(C)c(=O)[nH]c2=O)O1)Oc1ccccc1 | cytopathic effect / microscopy |  |  | CEM + CEM/0 | EC50 | 6 µM |
| O=S(=O)(Cc1ccccc1)c1c(Cl)ccc[n+]1[O-] | syncytia | IIIB |  | CEM | EC50 | >0.8 µg/mL |
| CC1(C)C2CCC3C(C(=O)C=C4C5C[C@@](C)(C(=O)O)CC[C@]5(C)CC[C@]43C)[C@@]2(C)CC[C@@H]1O[C@@H]1O[C@H](C(=O)O)[C@@H](O[C@@H]2O[C@H](C(=O)O)[C@@H](O)[C@H](O)[C@H]2O)[C@H](O)[C@H]1O | p24 | EVK |  | MT-4 | EC50 | 105 µg/mL |
| COc1ccc2c(c1)OCCCCCN(C[C@@H](O)[C@H](Cc1ccccc1)NC(=O)O[C@H]1CO[C@H]3OCC[C@H]31)S2(=O)=O | MTT | LAI |  | MT-2 | EC50 | 0.095 µM |
| C[C@@H]1O[C@H]2O[C@H]3[C@@H](OC[C@@H](O)[C@@H]3O)OC(=O)[C@]34CCC(C)(C)C[C@@]3(C)C3=CC[C@@]5(C)[C@@](C)(CC[C@@H]6[C@](C)(CO)[C@@H](O[C@@H]7O[C@H](CO)[C@@H](O)[C@H](O)[C@H]7O[C@@H]7O[C@@H](C(=O)C[C@](C)(O)CC(=O)O[C@@H]1[C@@H](O[C@@H]1OC[C@@H](O)[C@H](O)[C@H]1O)[C@H]2O)[C@H](O)[C@H](O)[C@H]7O)[C@@H](O)C[C@@]65C)[C@]3(C)CC4 | cytopathic effect / XTT | RF |  | H9 | EC50 | 19.7 µg/mL |
| O=C1Cc2cc(-c3cc4ccccc4o3)ccc2C(=O)N1O | cytopathic effect / absorbance | IIIB |  | CEM-SS | EC50 | >10 µM |
| Cc1ccc(S(=O)(=O)N(CC(C)C)C[C@@H](O)[C@H](Cc2ccccc2)NC(=O)[C@@H](NC(=O)CNC(C)(C)c2cccc(F)c2)C(C)(C)C)cc1N |  | RF |  | MT-2 | EC50 | <1 µM |
| CC(C)C1=C2C(CC1=O)[C@@H](C(=O)NCCN(CCN(C)C)Cc1ccc(Cl)cc1)C[C@@H]1[C@@H]2CCC2C3C(CC[C@]21C)C(C)(C)C(C1=CC[C@H](C(=O)O)CC1)=C[C@H]3C | MTS / propidium iodide | NL4-3 | V370A | MT-4 | EC50 | >22 µM |
| NCCCC[C@H](NC(=O)OCc1ccccc1)C(=O)NCCCCCC(=O)N[C@@H](CCCCN)C(=O)OCc1ccccc1 | p24 | IIIB |  | C8166 | EC50 | 80 µM |
| CC(C)CN(C[C@@H](O)[C@H](Cc1ccccc1)NC(=O)[C@@H](NC(=O)CNC(C)(C)c1cccc(F)c1)C(C)C)S(=O)(=O)c1ccc2ncccc2c1 |  | RF |  | MT-2 | EC50 | <1 µM |
| O=C(O)c1ccc(CS(=O)(=O)c2cccc[n+]2[O-])cc1 | syncytia | IIIB |  | CEM | EC50 | >100 µg/mL |
| Nc1c(C(=O)NCc2ccc(F)cc2F)c(=O)n(O)c2ncc(CCCCCCO)cc12 | luciferase |  |  | HOS | EC50 | <0.004 µM |
| Cc1ccc2sn(/N=C/c3ccc(O)c(O)c3)c(=O)c2c1 | MTT |  | K103N + Y181C | MT-4 | EC50 | >49 µM |
| Cc1cn([C@H]2C[C@H](N=[N+]=[N-])[C@@H](COP(=O)(O)CI)O2)c(=O)[nH]c1=O | MTT / p24 | GKV-4046 |  | MT-4 | EC50 | 5 µM |
| Cc1ccc(C)c(C(c2ccccc2)S(=O)(=O)c2cccc[n+]2[O-])c1 | syncytia | IIIB |  | CEM | EC50 | >20 µg/mL |
| Nc1c(C(=O)NCc2ccc(F)cc2F)c(=O)n(O)c2ncc(CCS(=O)(=O)CCN3CCOCC3)cc12 | luciferase |  | AGT (GGGAGT) | HOS | EC50 | 0.605 µM |
| Cc1ccc(C)c(CSc2ncccc2O)c1 | syncytia | IIIB |  | CEM | EC50 | 0.22 µg/mL |
| COCP(=O)(O)OC[C@H]1O[C@@H](n2cc(C)c(=O)[nH]c2=O)C[C@@H]1N=[N+]=[N-] | MTT / p24 | GKV-4046 |  | MT-4 | EC50 | 5 µM |
| CC(c1ccc(S(C)(=O)=O)cc1)S(=O)c1cccc[n+]1[O-] | syncytia | IIIB |  | CEM | EC50 | >0.8 µg/mL |
| COc1ccnc2[nH]cc(C(=O)C(=O)N3CCN(C(=O)c4ccccc4)C[C@H]3C)c12 | RT activity | LAI |  | PBMC | EC90 | >125 µM |
| Nc1ccn(CCCC(O)CF)c(=O)n1 | cytopathic effect | IIIB |  | CEM | EC50 | >100 µg/mL |
| C=CCOC(=O)CC(O)(CC(=O)O)C(=O)NCCCC[C@H](NC(=O)OCc1ccccc1)C(=O)N[C@@H](CCCCNC(=O)C(O)(CC(=O)O)CC(=O)OCC=C)C(=O)OCc1ccccc1 | p24 | IIIB |  | C8166 | EC50 | 10 µM |
| CC(C)CN(C[C@@H](O)[C@H](Cc1ccccc1)NC(=O)[C@@H](NC(=O)[C@@H](C)NC(C)(C)c1ccccc1)C(C)(C)C)S(=O)(=O)c1ccc2ncsc2c1 |  | RF |  | MT-2 | EC50 | <1 µM |
| O=c1c2ccccc2sn1/N=C/c1ccccc1O | MTT |  | Y181C | MT-4 | EC50 | >18 µM |
| Cc1cc[n+]([O-])c(S(=O)(=O)Cc2ccc(Cl)cc2)c1 | syncytia | IIIB |  | CEM | EC50 | >14 µg/mL |
| COc1ccc(S(=O)(=O)N(CC(C)C)C[C@@H](O)CCN(CC2CCCC2)S(=O)(=O)C2C(=O)CC(C)(C)SC2=O)cc1 | p24 | IIIB |  | CEM | EC50 | <1 µM |
| O=C1Cc2ccc(-c3ccc(F)c(F)c3)cc2C(=O)N1O | cytopathic effect / absorbance | IIIB |  | CEM-SS | EC50 | >10 µM |
| COc1ccc(/C=N/n2sc3ccccc3c2=O)cc1 | MTT |  |  | MT-4 | EC50 | >19 µM |
| Nc1ncnc2c1ncn2CCCC(O)CF | cytopathic effect | IIIB |  | CEM | EC50 | >100 µg/mL |
| O=c1[nH]c(=S)[nH]c2nc(-c3ccccn3)c(-c3ccccn3)nc12 | cytopathic effect / MTT / absorbance | IIIB |  | MT-4 | EC50 | >79.23 µM |
| COc1ccc(S(=O)(=O)N(CC(C)C)C[C@@H](O)CCN(CC2CCCC2)S(=O)(=O)c2cccnc2)cc1 | p24 | IIIB |  | CEM | EC50 | <1 µM |
| COc1ccc(-c2csc3nc4nc(-c5ccccn5)c(-c5ccccn5)nc4c(=O)n23)cc1 | cytopathic effect / MTT / absorbance | IIIB |  | MT-4 | EC50 | >2.11 µM |
| O=C1Cc2cc(-c3ccco3)ccc2C(=O)N1O | cytopathic effect / absorbance | IIIB |  | CEM-SS | EC50 | >10 µM |
| Nc1nc(=S)c2nc(-c3ccccn3)c(-c3ccccn3)nc2[nH]1 | cytopathic effect / MTT / absorbance | IIIB |  | MT-4 | EC50 | >47.64 µM |
| Clc1ccc(CSc2ccccn2)cc1 | syncytia | IIIB |  | CEM | EC50 | ≥1 µg/mL |
| COc1ccc(S(=O)(=O)N(CC(C)C)C[C@@H](O)CCN(CC2CCCC2)S(=O)(=O)Cc2csc(C(C)C)n2)cc1 | p24 | IIIB |  | CEM | EC90 | 1 µM |
| Nc1nc2nc(-c3ccccn3)c(-c3ccccn3)nc2c(=O)[nH]1 | cytopathic effect / MTT / absorbance | IIIB |  | MT-4 | EC50 | >67.22 µM |